Experimental data from paper PMC6608616, “Conservation of the structure and function of bacterial tryptophan synthases” (2019).

Chains of the proteins cited; added tags and fusions are not shown. Lines headed by an entry give the natural chain unless they say otherwise; changes in a name come on top. Residues count along the entry.
UniProt Q5ZVY3: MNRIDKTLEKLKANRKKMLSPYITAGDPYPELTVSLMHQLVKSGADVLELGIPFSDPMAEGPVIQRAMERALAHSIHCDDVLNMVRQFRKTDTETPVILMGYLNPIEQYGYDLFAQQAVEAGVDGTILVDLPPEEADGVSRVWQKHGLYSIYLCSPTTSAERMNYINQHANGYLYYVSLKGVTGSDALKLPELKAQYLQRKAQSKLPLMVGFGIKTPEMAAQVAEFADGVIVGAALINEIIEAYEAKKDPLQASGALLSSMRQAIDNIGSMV
UniProt Q5ZVY4, 13-396 limits assumed: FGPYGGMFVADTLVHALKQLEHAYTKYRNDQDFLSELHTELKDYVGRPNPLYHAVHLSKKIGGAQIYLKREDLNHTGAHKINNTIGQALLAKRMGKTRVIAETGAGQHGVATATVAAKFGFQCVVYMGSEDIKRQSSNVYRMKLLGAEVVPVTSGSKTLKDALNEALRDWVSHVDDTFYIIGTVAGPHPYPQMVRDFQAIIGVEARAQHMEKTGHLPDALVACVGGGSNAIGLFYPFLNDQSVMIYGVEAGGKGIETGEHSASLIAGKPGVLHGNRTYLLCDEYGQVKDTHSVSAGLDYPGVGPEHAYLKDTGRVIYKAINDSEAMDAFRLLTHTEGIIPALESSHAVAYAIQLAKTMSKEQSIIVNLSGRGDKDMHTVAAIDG
UniProt Q5NE79: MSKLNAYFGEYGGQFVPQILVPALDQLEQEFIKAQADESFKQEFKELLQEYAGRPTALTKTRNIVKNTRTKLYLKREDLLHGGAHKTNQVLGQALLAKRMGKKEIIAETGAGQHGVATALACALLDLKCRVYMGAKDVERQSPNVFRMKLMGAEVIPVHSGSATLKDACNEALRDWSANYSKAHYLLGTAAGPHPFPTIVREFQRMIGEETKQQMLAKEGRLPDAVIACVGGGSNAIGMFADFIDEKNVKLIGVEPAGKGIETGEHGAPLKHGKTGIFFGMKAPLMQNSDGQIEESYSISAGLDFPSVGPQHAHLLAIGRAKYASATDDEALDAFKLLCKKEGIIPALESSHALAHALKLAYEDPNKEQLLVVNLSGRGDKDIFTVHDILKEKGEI
UniProt Q5NE80: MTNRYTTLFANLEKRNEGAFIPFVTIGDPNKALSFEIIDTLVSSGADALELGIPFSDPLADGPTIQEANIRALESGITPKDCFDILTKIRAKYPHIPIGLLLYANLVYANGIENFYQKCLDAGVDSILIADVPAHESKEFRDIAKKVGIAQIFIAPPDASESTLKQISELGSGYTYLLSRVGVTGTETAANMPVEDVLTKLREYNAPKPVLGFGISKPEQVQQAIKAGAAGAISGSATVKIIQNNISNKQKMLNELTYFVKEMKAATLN
UniProt Q97P32, 4-407 limits assumed: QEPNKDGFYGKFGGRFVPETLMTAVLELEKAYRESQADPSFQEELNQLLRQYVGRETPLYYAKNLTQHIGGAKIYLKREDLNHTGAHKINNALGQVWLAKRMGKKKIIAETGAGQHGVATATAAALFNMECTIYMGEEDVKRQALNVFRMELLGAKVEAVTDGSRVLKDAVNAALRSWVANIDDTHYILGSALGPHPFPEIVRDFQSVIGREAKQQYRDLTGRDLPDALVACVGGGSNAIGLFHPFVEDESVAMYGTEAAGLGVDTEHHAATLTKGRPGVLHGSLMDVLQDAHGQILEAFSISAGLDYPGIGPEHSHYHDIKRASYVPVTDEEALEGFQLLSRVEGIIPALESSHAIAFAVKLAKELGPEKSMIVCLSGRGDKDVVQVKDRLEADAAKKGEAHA
UniProt Q97P33: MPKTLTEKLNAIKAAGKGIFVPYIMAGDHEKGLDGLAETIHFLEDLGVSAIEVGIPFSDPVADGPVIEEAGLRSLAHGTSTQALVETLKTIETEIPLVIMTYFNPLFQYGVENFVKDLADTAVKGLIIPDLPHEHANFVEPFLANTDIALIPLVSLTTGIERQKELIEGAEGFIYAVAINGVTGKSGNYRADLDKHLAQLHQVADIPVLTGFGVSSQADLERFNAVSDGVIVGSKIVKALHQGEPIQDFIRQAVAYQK
UniProt P9WFX9: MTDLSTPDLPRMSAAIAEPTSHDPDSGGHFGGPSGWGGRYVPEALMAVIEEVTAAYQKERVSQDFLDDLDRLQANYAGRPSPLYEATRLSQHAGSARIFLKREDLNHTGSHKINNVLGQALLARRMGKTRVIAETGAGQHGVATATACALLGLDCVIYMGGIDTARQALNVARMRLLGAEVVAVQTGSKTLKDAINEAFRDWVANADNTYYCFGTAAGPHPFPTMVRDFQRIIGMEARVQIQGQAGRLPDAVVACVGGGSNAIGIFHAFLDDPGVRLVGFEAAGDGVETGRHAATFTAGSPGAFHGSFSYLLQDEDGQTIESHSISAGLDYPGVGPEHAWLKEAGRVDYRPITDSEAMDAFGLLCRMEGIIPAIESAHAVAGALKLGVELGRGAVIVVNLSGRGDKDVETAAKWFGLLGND
UniProt P9WFY1: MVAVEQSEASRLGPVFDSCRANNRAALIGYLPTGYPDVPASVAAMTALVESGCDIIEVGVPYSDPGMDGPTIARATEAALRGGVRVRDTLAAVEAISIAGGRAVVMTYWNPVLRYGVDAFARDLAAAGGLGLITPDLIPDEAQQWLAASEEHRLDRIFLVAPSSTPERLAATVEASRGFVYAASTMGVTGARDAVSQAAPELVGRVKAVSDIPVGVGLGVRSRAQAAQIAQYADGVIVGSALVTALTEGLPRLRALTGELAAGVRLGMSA

How the values were obtained:
LpPhTrpAB = LpPhTrpAB (Legionella pneumophila subsp. pneumophila, UniProt Q5ZVY3+Q5ZVY4); assay: LC-MS assay, inhibition of the β reaction (indole + L-Ser to L-Trp); settings: substrate Km conditions, 600 nM LpPhTrpAB, compound 0 to 200 µM
FtTrpAB = FtTrpAB (Francisella tularensis subsp. tularensis, UniProt Q5NE79+Q5NE80); assay: as above; settings: 5 nM FtTrpAB; for IC50: read-out: IC^β 50, β reaction, substrate Km conditions (10 µM indole, 20 mM L-Ser)
SpTrpAB = SpTrpAB (Streptococcus pneumoniae serotype 4, UniProt Q97P32+Q97P33); assay: as above; settings: 100 nM SpTrpAB; for effect on the β reaction of SpTrpAB (in words): substrate Km conditions, compound 0 to 200 µM
StTrpAB = settings: previously characterized, ref Raboni et al., 2007; cited from earlier work
MtTrpAB = MtTrpAB (Mycobacterium tuberculosis, UniProt P9WFX9+P9WFY1); settings: previously characterized, ref Wellington et al., 2017; cited from earlier work

Row | Structure (SMILES) | effect on the β reaction of LpPhTrpAB (in words) (LpPhTrpAB) | IC50 (FtTrpAB) | effect on the β reaction of SpTrpAB (in words) (SpTrpAB) | effect on the β reaction of FtTrpAB (in words) (FtTrpAB; substrate Km conditions, compound 0 to 200 µM) | IC50 (SpTrpAB; read-out: IC^β 50, β reaction, substrate Km conditions (10 µM indole, 20 mM L-Ser)) | K m for serine (StTrpAB) | K m for serine (MtTrpAB)
1 | O=P(O)(O)OCCNS(=O)(=O)c1ccc(OC(F)(F)F)cc1 | only slightly inhibiting | 114 nM | activator | – | – | – | –
2 | N#CC1NC(CO)C1c1ccc(-c2ccccc2F)cc1 (stereo not drawn) | slightly inhibited | – | slightly inhibited | slightly inhibited | 21 µM | – | –
3 | O=C(NCCOP(=O)(O)O)c1ccc(OC(F)(F)F)cc1 | inhibition was only observed for the FtTrpAB enzyme | 1460 nM | inhibition was only observed for the FtTrpAB enzyme | – | – | – | –
4 | O=P(O)(O)OCCCc1c[nH]c2ccccc12 | inhibition was only observed for the FtTrpAB enzyme | 80 nM | inhibition was only observed for the FtTrpAB enzyme | – | – | – | –
5 | N[C@@H](CO)C(=O)O | – | – | – | – | – | 0.58 mM | 4.4 mM
